Results as given in patent publication US20160088853A1, “Ultraviolet Disinfection of Produce, Liquids and Surfaces” (DREXEL UNIVERSITY, priority 2013, published 2016).

Protocol: In this example, fluorescein dye was used to detect the presence of free radicals, since interactions of oxidizing free radicals with fluorescein quench the fluorescence signal intensity. A fluorescein dye solution (4 μg/L) containing 0.4% (w/v) fructose and a fluorescein dye solution (4 μg/L) without fructose (control) were exposed to UV radiation at wavelength of 254 nm.
A batch-UV processing unit (Spectronics Spectrolinker XL-1500 UV Crosslinker, Westbury, N.Y.) was used for Examples 5-10. The apparatus consisted of 5 UV lamps (254 nm, 15 W, Spectronics Corporation, Westbury, N.Y.) that generated a UV intensity of approximately 20 mW/cm^2 at the surface of exposure mounted within a shielded box (46.4×15.9×31.8 cm). Fluorescence intensity measurement noise was minimized by allowing the lamps to warm up for at least 15 minutes prior to taking measurements.
The test fluorescein solution with approximately 1 μM fluorescein was prepared in deionized water (pH 6.3) or 100 mM buffer at pH 6. […] Specifically, treatments were carried out by adding a 10.0 ml solution into an uncovered glass petri dish and exposing it to UV radiation for various amounts of time (0-12 minutes) in the UV processing unit. The samples in the petri dish were stirred to achieve uniform exposure to UV light. Ambient room temperature (20-22° C.) was used for the treatments. To measure the fluorescence intensity of the solution, at each time interval, 100 μl of the sample was pipetted from the petri dish into a well of a 96-well plate optimized for fluorescence measurement. Fluorescence was measured in a Gemini XPS fluorescence micro-plate reader (Molecular Devices, Sunnyvale, Calif.) with excitation and emission wavelengths of 485 nm and 510 nm, respectively. All the fluorescence values were normalized using Eq. (1):
where I0=fluorescence intensity at time t=0 minutes and It=fluorescence intensity after ‘t’ minutes of UV exposure.

## O=C1O[C@H]([C@@H](O)CO)C(O)=C1O [ascorbic acid, reference compound]
420 mg/L ascorbic acid in 0.4% (w/v) fructose, UV 254 nm, FIG. 4
  rate of loss of fluorescence: significantly reduced
25 and 50 μM ascorbic acid in 20 mM fructose, phosphate buffer pH 6, concentration dependent, FIG. 12
  rate of fluorescence decay: significantly reduced

## O=C(CO)[C@@H](O)[C@H](O)[C@H](O)CO [fructose]
  fraction of fructose in a form that exhibited photosensitivity to UV light: 0.8%
0.4% (w/v) fructose, fluorescein 4 μg/L, UV 254 nm, FIG. 2
  fluorescence intensity of fluorescein dye during UV exposure: rapidly decreased
0.4% fructose, after 4 minutes of UV exposure, absence of UV, FIG. 3
  change in fluorescence intensity in post-UV storage phase: no significant changes
Mere addition of fructose, no UV
  effect on fluorescence intensity of fluorescein in absence of UV light: did not show any effect

## OC[C@H]1O[C@@](CO)(O[C@H]2O[C@H](CO)[C@@H](O)[C@H](O)[C@H]2O)[C@@H](O)[C@@H]1O [sucrose, reference compound]
263 mM sucrose or 500 mM glucose, 12 minutes of UV exposure, FIG. 10A
  effect on fluorescence intensity of fluorescein: no effect
